Key:
endogenous p53 R175H = molecular target: T1, endogenous p53 R175H (Homo sapiens, UniProt P04637, R175H); experiment: In vitro binding of biotinylated 16mers, Sk-Br-3 cellular extracts; conditions: Sk-Br-3 lysate, unconstrained biotin-16mer 10 mM, 2 hours at 4° C., streptavidin pull-down
T1 construct: cellular extracts from Sk-Br-3 cells or HT-29 cells, expressing endogenous p53 R175H and R273H respectively; endogenous in cells; host or cells: Sk-Br-3 cell lysate

endogenous p53 R273H = molecular target: T2, endogenous p53 R273H (Homo sapiens, UniProt P04637, R273H); experiment: In vitro binding of biotinylated 16mers, HT-29 cellular extracts; conditions: HT-29 lysate, unconstrained biotin-16mer 10 mM, 2 hours at 4° C., streptavidin pull-down
T2 construct: cellular extracts from Sk-Br-3 cells or HT-29 cells, expressing endogenous p53 R175H and R273H respectively; endogenous in cells; host or cells: HT-29 cell lysate

DVADWESCGEYWCYRV [sA79] was tested, and the “in vitro binding of biotinylated 16mer to p53 R175H” value (endogenous p53 R175H) was “strongest interactor” and the “in vitro binding of biotinylated 16mer to p53 R273H” value (endogenous p53 R273H) was “strongest interactor”.

— patent publication US8822420B2, “Peptides and aptamers thereof as specific modulators of mutant p53 function” (Universita Degli Studi di Trieste, priority 2008, dated 2014)
